The supplement of paper PMC12637763
Numbering of substitutions follows the chain as printed. This is one part of the list. Env chains of viruses from a treatment-interruption trial, translated from the printed DNA. IC50 / IC80 of two broadly neutralizing antibodies; lower = more sensitive virus; >50 µg/ml means not reached and <0.001 µg/ml is below the lowest dose. No active / inactive call.

B1: HIV-1 Env, rebound clone, placebo arm (protein)
chain: MRVRGILRNYPQWWIWGILGFWMVMICNVVGNLWVTVYYGVPVWKDAKTTLFCASDAKAYDKEVHNVWATHACVPTDPNPQELVLGNVTENFNMWKNDMVDQMHEDVISLWDQSLKPCVKLTPLCVTLECVNANVTTVNVTNENINGTEEIKNCTFNATTEINDRKTREHALFYKLDIVPLETNHSSTKYRLINCNTSAVTQACPKVNFDPIPIHYCAPAGYAILKCNNKTFNGTGPCQNVSTVQCTHGIKPVVSTQLLLNSSLAEGEIIIRSENLTNNAKTIIVHLNDSIEITCIRPNNNTRKSIRIGPGQTFYATGDIIGDIRQAHCNISRNKWNQTLQRVSKKLGEHFPNATTIKFTSPSGGDLEIITHSFNCRGEFFYCNTSQLFNRTYMPNDTGSDSTGNSSDITDITIPCRIKQFINMWQGVGRAIYAPPIAGNITCKSNITGILLTRDGGRTNDNSTETFRPGGGDMRDNWRSELYKYKVVEIKPLGIAPTEAKRRVVAREKRAAGLGAVIFGFLGAAGSTMGAASMALTVQARQLLSGIVQQQSNLLRAIEAQQHMLQLTVWGIKQLQARVLAVERYLKDQRLLGIWGCSGKLICPTTVPWNSSWSNRSLADIWENMTWMQWDKEIDNYTNIIYSLLEESQNQQERNEQELLALDSWNSLWTWFSISNWLWYIKIFIMIVGGLIGLRIIFAVLSIVNRVRQGYSPLSFQTLTPNPREPDRLRGIEEEGGEQDRDRSIRLVNGFLALVWEDLRSLCLFSYHRLRDFILVTARAVELLGRSSYKGLQRGWEALKYLGSLVQYWGLELKKSAISLFDTLAIVIAGWTDRVIELGQRIGRTILHIPRRIRQGFERALL
B2: HIV-1 Env, rebound clone, placebo arm (protein)
chain: B1 chain with S262G, N639D, T845A
B3: HIV-1 Env, rebound clone, placebo arm (protein)
chain: B1 chain with A223T, S262G
B4: HIV-1 Env, rebound clone, placebo arm (protein)
chain: B1 chain with Q81R, S262G
B5: HIV-1 Env, rebound clone, antibody arm (protein)
chain: MKVRVMQRNWQHLGRWGLLFLGLLICCNATEQLWVTVYYGVPVWKEATTTLFCASDAKGYEKEAHNVWATHACVPTDPNPQEIPLVNVTENFNMWKNNMVEQMQTDIISLWDQSLKPCVKLTPLCVTLNCNNNIKGANGNNSTNPDMKNCSFNMTTEVRDKRLKVSALFYKIDLTPLNETSGEYRLINCNTSTIKQACPKVSWDPIPIHYCAPAGYAILKCRDKNFNGTGPCNNVSTVQCTHGIKPVVSTQLLLNGSLAEEDIVIRTQNISDNAKTIIVSLNESVSINCIRPGNNTRKSIHIGPGQVFYANNDIIGDIRKAFCTLNGTQWNKTLDRVKAKLRSLFNKTTIIFAQPSGGDLEVTMHSFNCRGEFFYCNTSGLFNDIDSNITLPCRIKQIINMWQGVGQAMYTAPIAGNITCVSNITGLLLTRDGGPDNDNETFRPGGGDMRDNWRSELYKYKVVEIEPLGIAPTRAKRQVVRRERRAVGIGAMFLGFLGAAGSTMGAASIALTVQARQLLSGIVQQQNNLLRAIEAQQHLLQLTVWGIKQLQARVLAVERYLKDQQLLGVWGCSGKLICTTSVPWNSSWSNKSQQEIWDNMTWMDWEREISTYSQTIYKLLEESQYQQDKNEQELLALDKWASLWNWFDISNWLWYIRIFIMIVGGLIGLRIVFAGLAIVNRVRKGYSPLSLQTLIPNSRGPDRPEGIEEGGGEQDRDRSVRLVNGFLALVWDDLRNLCLFSYRLLRDFILIAARTVDRGLRGGWKALKYLWNLTQYWSRELKDSAISLYNSIAIAVAEGTDRIIEALQIIVRGVLHIPRRIRQGLERALL
B6: HIV-1 Env, rebound clone, placebo arm (protein)
chain: MRVKGIRKSCQRLWRWGIMLLGMLMISSATEKLWVTVYYGVPVWKEANTTLFCASDAKAYDTEAHNVWATHACVPTDPNPQELDLENVTENFNMWKNGMVEQMHEDVISLWDQSLKPCVKLTPLCVTLNCTNDVNLRVNSSNSNSSINSSSSISNSSIEEKGEIKNCSFNITTSIRDKVTKEYALFYRLDIVSIKDDKSDNSNNTNTRYRLINCNTSVITQACPKVSFEPIPIHYCAPAGFAILKCKDREFNGSGTCQNVSTVQCTHGIKPVVSTQLLLNGSLAEGEVVIRSENFSDNAKTIIVQLSRPVVINCTRPNNNTRKSIHIAPGRTFYATGDIIGDIRQAHCNISKRDWNKTLKEVKGKLEKQYNKTILFNQSSGGDPEIVFHTFNCAGEFFYCNTTNLFNNNITINNGTNGTNTNENITLPCRIKQIINLWQEVGKAMYAPPIKGQIRCSSNITGLLLTRDGGLNENRTNDTVRPGGGDMRDNWRSELYRYKVVEIEPLGIAPTKAKRRVVQREKRAVGAIGAMFLGLLGAAGSTMGAASITLTVQARLVLSGIVQQQNNLLRAIEAQQHLLQLTVWGIKQLQARVLAVERYLKDQQLLGIWGCSGKLICTTSVPWNSSWSNRSLEYIWNNMTWMQWEREIDNYTGKIYTLIEEAQHKQEENELELLKLDEWSNLWNWFDISKWLWYIKIFIMIVGGLIGLRIVFAVISIVNRVRKGYSPLSFQTHFPAPRGPDRPGGTEEEGGDRDRDRSTRLVDGFLALVWDDLRSLILFLYHHLRDLLLIITRIVGLLGRRGWEILKYWWNLLQYWSRELKLSAISLYNATAVAVAEGTDRVIEVVQRIFRGVLHVPRRIRQGLERILV

These binders were tested against antibody 10-1074 (assay: neutralization IC50; higher = virus less sensitive to the antibody).
Protocol: (§1)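 Pseudovirus bearing the Env chain mixed with antibody, from 50 µg/ml in fivefold dilutions, on TZM-bl reporter cells, in duplicate.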

Binder	neutralization IC50 [µg/mL]
B1	0.008
B2	0.009
B3	0.009
B4	0.011
B5	> 50
B6	0.013

These binders were tested against antibody 3BNC117 in the same assay as above.
Protocol: as §1

Binder	neutralization IC50 [µg/mL]
B1	0.025
B2	0.032
B3	0.03
B4	0.04
B5	0.219
B6	0.106

Each binder was assayed against antibody 10-1074 (assay: neutralization IC80; higher = virus less sensitive to the antibody).
Protocol: as §1

Binder	neutralization IC80 [µg/mL]
B1	0.029
B2	0.028
B3	0.026
B4	0.026
B5	> 50
B6	0.05

The binders below were run against antibody 3BNC117 in the same assay as above.
Protocol: as §1

Binder	neutralization IC80 [µg/mL]
B1	0.076
B2	0.132
B3	0.119
B4	0.136
B5	> 50
B6	0.374
